Data as given in patent publication US20170303554A1, “METHOD OF SANITIZING EDIBLE SEEDS, PARTICULARLY MUCILAGE PRODUCING SEEDS” (AGRI-NEO INC., priority 2014, published 2017).

Assays:
[1] = Organoleptic assessment of treated seeds (Example 1); conditions: 40 L/tonne
[2] = Physical characteristics of treated seeds, incl. mucilage (Example 1); conditions: 40 L/tonne

SMILES: CCO [2- Alcohol - ethanol, ethanol]
- Organoleptic ([1]; black pepper): No effect
- Organoleptic ([1]; chia seeds): No mucilage
- Organoleptic ([1]; flax seeds): No mucilage
- Organoleptic ([1]; hemp): No effect
- Organoleptic ([1]; pea fiber): No effect
- Organoleptic ([1]; sprouted flax and chia): No mucilage
- Organoleptic ([1]; vanilla): No effect
- Organoleptic ([1]; whole dried pea): No effect
- Organoleptic ([1]; whole split pea): No effect
- Physical Characteristics ([2]; black pepper): No effect
- Physical Characteristics ([2]; chia seeds): No mucilage
- Physical Characteristics ([2]; flax seeds): No mucilage
- Physical Characteristics ([2]; hemp): No effect
- Physical Characteristics ([2]; pea fiber): No effect
- Physical Characteristics ([2]; sprouted flax and chia): No mucilage
- Physical Characteristics ([2]; vanilla): No effect
- Physical Characteristics ([2]; whole dried pea): No effect
- Physical Characteristics ([2]; whole split pea): No effect
